Test system: human PBMCs

SMILES: CNC(=O)[C@@H](NC(=O)[C@H](CCCc1ccccc1)[C@H](C)N(O)C=O)C(C)(C)C [GI254023X]
- viability of the immune cells (MTT): no significant difference

— patent US12139534B2, “Methods and compositions for decreasing soluble immune receptor CD28” (BIOND BIOLOGICS LTD., priority 2018, dated 2024)
